# Values from PubChem BioAssay AID1259414 (Drosophila RNAi Screening Center, 2018)
# Purpose: 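Host factors increasing or decreasing Wolbachia levels in cultured fly cells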 (primary screen)
# System: Drosophila JW18 cells infected with Wolbachia
# Knock-down reagent: long dsRNA against Drosophila genes, 0.25 µg dsRNA per well of a 384-well plate
# Duration: 5 days
# Conditions: cells persistently infected with Wolbachia before knock-down; no added drug
# Measurement: 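Automated imaging of bacterial rRNA staining divided by host cell count, reported as plate-normalised robust z-score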
# Direction: Wolbachia per cell robust z: higher = more Wolbachia per host cell than the plate typical
# Active means: 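Hit when robust z is 1.5 or more, or -1.5 or less, in at least two of three replicates; excludes dsRNAs with several or no targets, genes not expressed in JW18 and well A1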
# The screen tested about 24,000 reagents; this is a random part of those with a known target gene and a result. Over the whole deposit, about 1,210 (5%) are marked active. 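Inactive calls also include excluded dsRNAs with several or no targets, genes unexpressed in JW18, and well A1, regardless of score.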
Target gene,dsRNA,"Wolbachia per cell robust z, rep 1","Wolbachia per cell robust z, rep 2","Wolbachia per cell robust z, rep 3",activity call
stw,DRSC04842,0.58,0.71,-6.03,inactive
stw,DRSC04843,-0.783,1.37,0.622,inactive
stw,DRSC22527,0.68,0.483,-0.504,inactive
stw,DRSC26018,0.0304,-0.323,0.63,inactive
CR32511,DRSC20697,-1.5,-1.22,-0.181,inactive
CG5757,DRSC06951,-1.04,0.55,-0.559,inactive
CG7183,DRSC16210,-1.27,-0.473,-1.93,inactive
Sox15,DRSC07555,1.14,0.573,0.823,inactive
Sox15,DRSC28528,-0.625,-0.425,-0.422,inactive
CG15597,DRSC12283,-0.318,-1.2,-0.205,inactive
CG15597,DRSC24202,-1.01,0.901,-0.323,inactive
spo,DRSC11127,-0.0851,-2.52,-0.733,inactive
vap,DRSC20275,-1.73,-0.462,1.33,inactive
dtn,DRSC17939,-0.411,-0.0431,-0.198,inactive
dtn,DRSC29824,-5.86,-0.493,-10.1,active
CG31460,DRSC14370,1.11,1.1,-0.000324,inactive
plx,DRSC12260,2.71,-0.221,-8.63,inactive
plx,DRSC12385,-0.526,-0.139,-3.15,inactive
plx,DRSC22683,-0.469,-1.43,-0.794,inactive
plx,DRSC28545,-2.11,-0.781,-2.46,active
eEF1gamma,DRSC16659,0.222,0.489,0.493,inactive
eEF1gamma,DRSC23655,-1.56,0.736,0.105,inactive
CG30083,DRSC05572,-0.175,0.723,-0.49,inactive
fbp,DRSC02077,-0.238,-7.5,0.0608,inactive
fbp,DRSC41590,0.342,0.905,0.561,inactive
ATPsynCF6L,DRSC08232,0.081,1.39,1.36,inactive
ATPsynCF6L,DRSC27341,0.48,0.128,0.821,inactive
M6,DRSC11869,0.551,0.392,-1.18,inactive
Rnf11,DRSC21574,0.632,0.671,0.975,inactive
Rnf11,DRSC27053,0.562,0.716,1.02,inactive
CG12983,DRSC11692,0.956,0.686,0.528,inactive
Xe7,DRSC12307,-6.05,-0.618,-0.434,inactive
CG8329,DRSC10978,-1.07,-0.262,-3.89,inactive
CG8329,DRSC26746,0.644,-1.04,-0.572,inactive
FeCH,DRSC16948,0.544,-0.103,-1.6,inactive
FeCH,DRSC27562,0.0226,0.258,-0.393,inactive
Moca-cyp,DRSC15364,-1.93,-0.836,-0.966,inactive
Moca-cyp,DRSC25515,-0.413,-0.496,-1.94,inactive

Next part, starting with the last 3 of the part before.
Target gene,dsRNA,"Wolbachia per cell robust z, rep 1","Wolbachia per cell robust z, rep 2","Wolbachia per cell robust z, rep 3",activity call
FeCH,DRSC27562,0.0226,0.258,-0.393,inactive
Moca-cyp,DRSC15364,-1.93,-0.836,-0.966,inactive
Moca-cyp,DRSC25515,-0.413,-0.496,-1.94,inactive
ENGase,DRSC19952,0.457,0.133,-1.39,inactive
ENGase,DRSC19953,-0.0905,0.792,0.426,inactive
jigr1,DRSC15233,-5.63,-2.21,-1.23,active
jigr1,DRSC22617,-0.345,-0.0215,1.25,inactive
CG9667,DRSC16535,0.191,-0.56,-1.9,inactive
CG9667,DRSC23667,1.51,-0.0456,1.35,inactive
Dpck,DRSC12575,0.364,-0.743,-2.07,inactive
Dpck,DRSC41443,0.00889,-1.75,0.193,inactive
CG6418,DRSC10633,0.103,0.778,0.855,inactive
CG6418,DRSC27621,1.11,-0.148,0.612,inactive
CG9312,DRSC16471,-0.149,-0.676,0.748,inactive
Cyp9f2,DRSC16635,0.626,0.887,0.86,inactive
CG34327,DRSC19517,-3.91,-0.25,-1.71,inactive
CG34327,DRSC22380,-0.14,0.425,-0.657,inactive
CG34327,DRSC29197,0.0636,-2.26,-0.904,inactive
Pink1,DRSC18361,-0.741,2.13,-4.61,inactive
CG17751,DRSC15261,-4.67,-0.252,-0.376,inactive
CG17751,DRSC22837,0.297,-0.0611,0.272,inactive
CG17751,DRSC24497,-0.292,0.535,0.567,inactive
CG32988,DRSC02692,0.26,0.166,-4.25,inactive
CG3902,DRSC10387,0.692,-0.839,0.53,inactive
CG3902,DRSC24267,1.74,-0.407,-0.608,inactive
Pcd,DRSC16785,0.0754,-0.367,-0.998,inactive
CG15375,DRSC18045,0.765,-0.209,0.849,inactive
CG15375,DRSC29860,-0.8,-1.18,-1.21,inactive
CG12511,DRSC02171,-2.86,-0.957,0.38,inactive
Alg7,DRSC02833,-0.0781,-0.662,-0.0326,inactive
Alg7,DRSC02834,-0.733,-0.772,-0.811,inactive
CG4927,DRSC06903,-0.889,0.671,0.437,inactive
CG4927,DRSC28614,-0.738,-0.0194,-0.363,inactive
